Values of other authors, collected in US7868028B2 (priority 2002, dated 2011).

Key:
neural elements = conditions: rat, intrathecal, 10×ED50 for block of tail-flick reflex; Sakura et al. 1995; cited from earlier work
rat = conditions: intrathecal, dose approximating 10×ED50 for block of the tail-flick reflex; cited from earlier work

NC1=N[C@H](O)[C@H]2[C@H]3O[C@]4(O)O[C@@H]([C@@H](O)[C@@]2(N1)[C@@H]4O)[C@]3(O)CO [TTX, tetrodotoxin]
toxicity to neural elements (neural elements): indistinguishable from saline | duration of neuronal block (rat): between two and four days
